In ChEMBL document CHEMBL3091338, “Secoemestrin D, a cytotoxic epitetrathiodioxopiperizine, and emericellenes A-E, five sesterterpenoids from Emericella sp. AST0036, a fungal endophyte of Astragalus lentiginosus1” (J Nat Prod, 2013) one finds Selectivity ratio data, which are given here for one molecule.

For this assay, the system named is A549. The assay is described as follows: Selectivity for human HepG2 cells over human A549 cells.

Regarding `COc1cc2c(c3oc4cccc(O)c4c(=O)c13)[C@@H]1C=CO[C@@H]1O2` [STERIGMATOCYSTIN], the Selectivity ratio is 80.
